Reference: PubChem BioAssay AID624099 (ICCB-Longwood, 2012)
This is an unselected part of about 21,000 reagents. 497 of them (2.4%) count as active. 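Higher z means weaker E2 silencing; only reporter increases were scored, and knock-downs that hurt cell survival may mask genuine repressor factors.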

- Test: 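Knock-downs relieving repression by E2 of an HPV18 LCR luciferase reporter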 (primary screen)
- System: human C33A cervical carcinoma cells (HPV-negative) stably expressing BPV1 E2 and an HPV18 LCR luciferase reporter
- Knock-down reagent: siRNA pool against human genes, 40 nM
- Time to read-out: 72 h
- Detection: 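Per-well luciferase luminescence, z-scored on each plate against the plate mean and SD with control wells left out, then averaged across three replicate plates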
- Scale: mean z-score and z-score: higher = stronger reporter signal, weaker E2 silencing
- Hit rule: 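Hit if mean z-score reaches 2 and two or more of three replicate z-scores also reach 2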

target gene,mean z-score,"z-score, replicate A","z-score, replicate B","z-score, replicate C",outcome
LINC00260,-0.31,-0.59,-0.27,-0.06,inactive
H1-3,-0.16,-0.29,-0.3,0.12,inactive
CCDC124,-0.97,-1.3,-1.03,-0.57,inactive
FRMD4B,-1.14,-1.08,-1.38,-0.95,inactive
SRRM3,-0.84,-0.57,-0.91,-1.05,inactive
C16orf78,-0.48,0.06,-0.65,-0.84,inactive
KRT1,-1.04,-0.77,-1.11,-1.23,inactive
CHTF8,0.36,0.51,0.45,0.12,inactive
P2RY14,-0.32,-0.06,-0.36,-0.52,inactive
TRIM3,-0.7,-0.67,-0.77,-0.67,inactive
CCNG2,-0.45,-0.43,-0.52,-0.41,inactive
PIR,1.38,1.49,1.38,1.27,inactive
PPTC7,-1.63,-1.67,-1.68,-1.53,inactive
DARS1,-0.99,-0.46,-1.29,-1.21,inactive
XAGE1B,-1.65,-1.34,-1.75,-1.86,inactive
LOC389742 (retired record),0.18,0.27,0.44,-0.18,inactive
ANO5,-0.3,-0.64,-0.04,-0.22,inactive
UBE2L3,-0.58,-0.58,-0.68,-0.49,inactive
ENTPD3,-1.09,-0.75,-1.21,-1.3,inactive
TRIM49B,-0.19,-0.02,-0.45,-0.1,inactive
ZNF319,-0.4,0,-0.41,-0.77,inactive
AQP7P4,-0.64,-0.57,-0.54,-0.81,inactive
LOC400781 (retired record),0.25,0.3,0.2,0.25,inactive
HPCA,-0.74,-0.6,-0.45,-1.18,inactive
NMUR1,0.62,0.46,0.4,0.99,inactive
TLCD3A,0.91,1.87,0.66,0.21,inactive
MTNR1A,-0.2,0.07,-0.27,-0.41,inactive
ESCO1,-1.31,-1.44,-1.31,-1.17,inactive
TFR2,0.12,-0.02,-0.17,0.56,inactive
PPIAP26,0.58,0.11,0.63,0.99,inactive
BRMS1L,-0.98,-0.98,-0.85,-1.11,inactive
PRSS50,-0.34,-0.11,-0.07,-0.83,inactive
LYPD6B,1.68,2.25,1.65,1.15,inactive
IZUMO1R,0.02,-0.06,0.12,0,inactive
ERICH1,0.55,0.78,0.5,0.36,inactive
RFFL,-0.5,-0.68,-0.49,-0.33,inactive

Copied from the list:
For “z-score, replicate A”, SRRM3 has -0.57
For “outcome”, ERICH1 is entered as inactive
DARS1, z-score, replicate A = -0.46

Further records follow.
target gene,mean z-score,"z-score, replicate A","z-score, replicate B","z-score, replicate C",outcome
TMEM268,0.76,0.4,0.77,1.11,inactive
PAPLN,0.87,1,0.33,1.29,inactive
BAMBI,0.32,0.33,0.03,0.6,inactive
LY6D,0.28,0.08,0.34,0.43,inactive
B4GALT5,-1.03,-1.06,-1.08,-0.95,inactive
GABARAPL2,1.62,1.51,1.67,1.69,inactive
DDI1,-0.16,-0.38,0.36,-0.47,inactive
FTMT,-0.58,-0.23,-0.75,-0.76,inactive
PALLD,-0.68,-0.47,-0.82,-0.74,inactive
ALG10,0.03,-0.1,0.09,0.11,inactive
LYRM4,1.28,1.44,1.44,0.97,inactive
SYT3,0.01,-0.15,0.31,-0.12,inactive
ZNF544,0.61,0.6,0.27,0.97,inactive
PHIP,-0.72,-0.63,-0.81,-0.72,inactive
PCBD1,0.19,0.67,0.03,-0.14,inactive
MYH11,-1.48,-1.36,-1.86,-1.22,inactive
SLC22A13,-0.15,-0.07,0.09,-0.47,inactive
NLRP6,1.25,1.48,0.93,1.34,inactive
AVPI1,0.24,-0.29,0.18,0.82,inactive
DYNAP,-1.03,-1.08,-1.11,-0.91,inactive
LILRA1,0.24,0.16,0.33,0.22,inactive
